Reference: article PMC8389807 (Journal of Medicinal Chemistry, 2021)

Test system: HIV-1 (NL4.3)
Format: cell-based
Conditions: for SI: selectivity index (CC50/EC50), MT-4 cells

SMILES	SI	fold more potent than C2 counterpart AL-471 (anti-HIV EC50 ratio)
O=C(CCC(CCC(=O)NC(Cc1c(-c2cc(C(=O)O)cc(C(=O)O)c2)[nH]c2ccccc12)C(=O)O)(CCC(=O)NC(Cc1c(-c2cc(C(=O)O)cc(C(=O)O)c2)[nH]c2ccccc12)C(=O)O)[N+](=O)[O-])NC(Cc1c(-c2cc(C(=O)O)cc(C(=O)O)c2)[nH]c2ccccc12)C(=O)O (stereo not drawn) [AL-470, reference compound]	370	
O=C(CCC(CCC(=O)NC(Cc1c[nH]c2c(-c3cc(C(=O)O)cc(C(=O)O)c3)cccc12)C(=O)O)(CCC(=O)NC(Cc1c[nH]c2c(-c3cc(C(=O)O)cc(C(=O)O)c3)cccc12)C(=O)O)[N+](=O)[O-])NC(Cc1c[nH]c2c(-c3cc(C(=O)O)cc(C(=O)O)c3)cccc12)C(=O)O (stereo not drawn) [Compound 16]	232.6	
O=C(CCOCC(COCCC(=O)NC(Cc1c[nH]c2c(-c3cccc(C(=O)O)c3)cccc12)C(=O)O)(COCCC(=O)NC(Cc1c[nH]c2c(-c3cccc(C(=O)O)c3)cccc12)C(=O)O)COCCC(=O)NC(Cc1c[nH]c2c(-c3cccc(C(=O)O)c3)cccc12)C(=O)O)NC(Cc1c[nH]c2c(-c3cccc(C(=O)O)c3)cccc12)C(=O)O (stereo not drawn) [Compound 21]	7.1	
O=C(CCOCC(COCCC(=O)NC(Cc1c[nH]c2c(-c3ccc(C(=O)O)cc3)cccc12)C(=O)O)(COCCC(=O)NC(Cc1c[nH]c2c(-c3ccc(C(=O)O)cc3)cccc12)C(=O)O)COCCC(=O)NC(Cc1c[nH]c2c(-c3ccc(C(=O)O)cc3)cccc12)C(=O)O)NC(Cc1c[nH]c2c(-c3ccc(C(=O)O)cc3)cccc12)C(=O)O (stereo not drawn) [Compound 22]	15.5	
O=C(CCOCC(COCCC(=O)NC(Cc1c[nH]c2c(-c3cc(C(=O)O)cc(C(=O)O)c3)cccc12)C(=O)O)(COCCC(=O)NC(Cc1c[nH]c2c(-c3cc(C(=O)O)cc(C(=O)O)c3)cccc12)C(=O)O)COCCC(=O)NC(Cc1c[nH]c2c(-c3cc(C(=O)O)cc(C(=O)O)c3)cccc12)C(=O)O)NC(Cc1c[nH]c2c(-c3cc(C(=O)O)cc(C(=O)O)c3)cccc12)C(=O)O (stereo not drawn) [Compound 23]	4687.5	3.5 fold
O=C(CCOCC(COCCC(=O)NC(Cc1c(-c2ccc(C(=O)O)cc2)[nH]c2c(-c3ccc(C(=O)O)cc3)cccc12)C(=O)O)(COCCC(=O)NC(Cc1c(-c2ccc(C(=O)O)cc2)[nH]c2c(-c3ccc(C(=O)O)cc3)cccc12)C(=O)O)COCCC(=O)NC(Cc1c(-c2ccc(C(=O)O)cc2)[nH]c2c(-c3ccc(C(=O)O)cc3)cccc12)C(=O)O)NC(Cc1c(-c2ccc(C(=O)O)cc2)[nH]c2c(-c3ccc(C(=O)O)cc3)cccc12)C(=O)O (stereo not drawn) [Compound 32]	476.2	
O=C(CCC(CCC(=O)NC(Cc1c(-c2cccc(C(=O)O)c2)[nH]c2ccccc12)C(=O)O)(CCC(=O)NC(Cc1c(-c2cccc(C(=O)O)c2)[nH]c2ccccc12)C(=O)O)[N+](=O)[O-])NC(Cc1c(-c2cccc(C(=O)O)c2)[nH]c2ccccc12)C(=O)O (stereo not drawn) [I, reference compound]	6	
O=C(CCC(CCC(=O)NC(Cc1c(-c2ccc(C(=O)O)cc2)[nH]c2ccccc12)C(=O)O)(CCC(=O)NC(Cc1c(-c2ccc(C(=O)O)cc2)[nH]c2ccccc12)C(=O)O)[N+](=O)[O-])NC(Cc1c(-c2ccc(C(=O)O)cc2)[nH]c2ccccc12)C(=O)O (stereo not drawn) [II, reference compound]	29.6	
O=C(CCOCC(COCCC(=O)NC(Cc1c(-c2cccc(C(=O)O)c2)[nH]c2ccccc12)C(=O)O)(COCCC(=O)NC(Cc1c(-c2cccc(C(=O)O)c2)[nH]c2ccccc12)C(=O)O)COCCC(=O)NC(Cc1c(-c2cccc(C(=O)O)c2)[nH]c2ccccc12)C(=O)O)NC(Cc1c(-c2cccc(C(=O)O)c2)[nH]c2ccccc12)C(=O)O (stereo not drawn) [III, reference compound]	50	
O=C(CCOCC(COCCC(=O)NC(Cc1c(-c2ccc(C(=O)O)cc2)[nH]c2ccccc12)C(=O)O)(COCCC(=O)NC(Cc1c(-c2ccc(C(=O)O)cc2)[nH]c2ccccc12)C(=O)O)COCCC(=O)NC(Cc1c(-c2ccc(C(=O)O)cc2)[nH]c2ccccc12)C(=O)O)NC(Cc1c(-c2ccc(C(=O)O)cc2)[nH]c2ccccc12)C(=O)O (stereo not drawn) [IV, reference compound]	137	
CN[C@@H]1[C@H](O[C@@H]2OC[C@@H](O)[C@H](O)[C@H]2O)[C@@H](O)[C@H](O[C@H]2c3cc(C)c(C(=O)N[C@H](C)C(=O)O)c(O)c3-c3c(cc4c(c3O)C(=O)c3cc(OC)cc(O)c3C4=O)[C@@H]2O)O[C@@H]1C [PRM-A, pradimicin A, reference compound]	30.3	
